According to paper PMC5290737, “Surface mediated cooperative interactions of drugs enhance mechanical forces for antibiotic action” (Scientific Reports, 2017):

System: vancomycin-susceptible receptor (VSR)
Experiment: Cantilever surface stress assay, antibiotic binding to surface-bound VSR
Details: equation (2)
From the text: To probe different pathways of signal-transduction central to the efficacy of recognition mechanisms and therapeutic agents, we used cantilever force-based technology. Because of its nanometre strain sensitivity, this technology can directly measure the smallest changes in mechanical strain caused by specific antibiotic binding. The principles of force transduction and measurements are well established[18][19][20] and many studies focused on cantilever sensors have been published. Unlike conventional methods such as 1H–NMR spectroscopy, enzyme-linked immunosorbent assays (ELISA)[29] or surface plasmon resonance (SPR)[30] which measure optical signatures of chemical binding, cantilever technology has the capacity to resolve forces at the level of individual hydrogen bonds, making it uniquely suited to provide important insight into force transduction mechanisms, such as cell wall strain in response to antibiotic binding. […]
Here, Ksurf is raised to the power n to ensure that it maintains the dimension of concentration as n varies. […] The calculated Ksurf for Ori binding to VSR is 40 ± 10 nM, which is 25 times stronger than for Van where Ksurf is 1.0 ± 0.3 μM. […]

## ristomycin
  Hill coeff. (n): 0.6 ± 0.3
